Measured values from several laboratories, pooled; numbers as filed in NIAID ChemDB.

Common to all: target-level tests; protein: CCR5

Rows are shuffled and stem from different studies. Inhibition is in % at the dose shown (toxicity tests: loss of growth or viability). ICn: concentration for n% inhibition. Blank or dashed fields: not listed here.

compound | method | measure | dose | result
CCN(C(=O)Cc1ccc(S(C)(=O)=O)cc1)C1CCN(CC[C@H](NC(=O)C2CCN(C(=O)COCCOC)CC2)c2ccccc2)CC1 | fluorescence | IC50 | - | <50 µM
CC(C)=CC[C@@H](O)C1=CC(=O)c2c(O)ccc(O)c2C1=O | - | inhibition | 1 µM | 80%
CS(=O)(=O)c1ccc(CC2CCN(CCCN(C(=O)Nc3ccc(Cl)cc3)c3ccccc3)CC2)cc1 | radiometric | IC50 | - | 0.0012 µM
CCN(C(=O)Cc1ccc(S(C)(=O)=O)cc1)C1CCN(CC[C@H](NC(=O)OC(C)(C)C)c2cccc(F)c2)CC1 | fluorescence | IC50 | - | <50 µM
c1ccc(-c2cccc(NCc3ccc(CN4CCCNCCNCCCNCC4)cc3)c2)cc1 | fluorescence | inhibition | 10 µM | 61%
c1ccc(CC2CCN(CCCNc3ccccc3)CC2)cc1 | radiometric | inhibition | 10 µM | 30%
O=C(Nc1ccc(Cl)cc1)N(CCCN1CCC(Cc2ccc(F)cc2)CC1)c1ccccc1 | radiometric | IC50 | - | 0.0078 µM
CN1CC(C(=O)N(CCCN2CCC(C(=O)c3ccc(F)cc3)CC2)c2ccccc2)CC1=O | radiometric | inhibition | 1 µM | 40%
CN1CC(C(=O)N(CCN2CCC(C(=O)c3ccc(F)cc3)CC2)c2ccccc2)CC1=O | radiometric | inhibition | 10 µM | 27%
CN1CC(C(=O)N(CCCN2CCC3(C=Cc4ccccc43)CC2)c2ccccc2)CC1=O | radiometric | inhibition | 1 µM | 24%
O=C(O)c1ccc(NC(=O)N(CCCN2CCC(Cc3ccc(F)cc3)CC2)c2ccccc2)cc1 | radiometric | IC50 | - | 0.35 µM
CN1CC(C(=O)N(CCCN2CCC(Cc3ccc(F)cc3)CC2)c2ccc(Cl)c(Cl)c2)CC1=O | radiometric | inhibition | 1 µM | 92%
O=C(CCc1ccccc1)N(CCCN1CCC(Cc2ccccc2)CC1)c1ccccc1 | radiometric | IC50 | - | 0.92 µM
CN1CC(C(=O)N(CCCN2CCC(Cc3ccccc3)CC2)c2cccc(Cl)c2)CC1=O | radiometric | inhibition | 1 µM | 82%
CCN(C(=O)Cc1ccc(S(C)(=O)=O)cc1)C1CCN(CC[C@H](NC(=O)C2CCN(C(=O)OC(C)(C)C)CC2)c2ccccc2)CC1 | fluorescence | IC50 | - | <50 µM
CN1CC(C(=O)N(CCCN2CCC(Cc3ccccc3)CC2)c2ccc(Cl)c(Cl)c2)CC1=O | radiometric | inhibition | 1 µM | 95%
O=S1CC2(CCN(CC[C@H](COCc3ccccc3)c3ccc(Cl)c(Cl)c3)CC2)c2ccccc21 | radioligand binding / binding | inhibition | 1 µM | 41%
CCN(C(=O)Cc1ccc(S(C)(=O)=O)cc1)C1CCN(CC[C@H](NC(=O)C2CCN(S(=O)(=O)C(C)C)CC2)c2ccccc2)CC1 | fluorescence | IC50 | - | <50 µM
O=C1CC(C(=O)N(CCCN2CCC(Cc3ccccc3)CC2)c2ccccc2)CN1Cc1ccccc1 | radiometric | inhibition | 1 µM | 92%